A mixed list of measured activities; the numbers were collected in NIAID ChemDB.

All rows: host cell toxicity; cell line: HepG2.117; read by: luminescence; read-out: CC50

CCn: concentration that lowers growth or viability of the cells by n%. Neighbouring rows are from separate reports.

C[C@@H]1Cc2nn3c(c2CN1C(=O)c1ccc(Cl)c(C#N)c1)C(=O)N([C@H](C)c1ccnc(C(F)(F)F)c1)CC3 ; value: >50 µM
COc1ccc(-n2c(-c3ccccc3)nc3c(c2=O)C[C@@H](C)N(C(=O)c2ccc(Br)c(C(F)(F)F)c2)C3)cc1 ; value: >0.5 µM
Cc1cc(C)n(-c2nc3c(c(=O)n2-c2cc(Cl)c4c(c2)ncn4C)C[C@@H](C)N(C(=O)c2ccc(Br)c(C(F)(F)F)c2)C3)n1 ; value: >0.5 µM
Cc1c(C(=O)N2Cc3c(nn4c3C(=O)N([C@H](C)c3ccc(OC(F)F)cc3)CC4)C[C@H]2C)ccc(Cl)c1C#N ; value: >50 µM
Cc1cc(C)n(-c2nc3c(c(=O)n2-c2ccc4c(ncn4C)n2)C[C@@H](C)N(C(=O)c2ccc(Br)c(C(F)(F)F)c2)C3)n1 ; value: >0.5 µM
CC(=O)Nc1cccc([C@@H](C)N2CCn3cc4c(c3C2=O)CN(C(=O)c2ccc(Cl)c(C#N)c2)[C@H](C)C4)c1 ; value: >50 µM
C=C[C@H](C)Nc1nc2c(c(=O)n1-c1ccc(C(=O)NC)cc1)C[C@@H](C)N(C(=O)c1ccc(Br)c(C(F)(F)F)c1)C2 ; value: 46.8 µM
Cc1cc(C)n(-c2nc3c(c(=O)n2-c2ccc(OCC(N)=O)cc2)C[C@@H](C)N(C(=O)c2ccc(Br)c(C(F)(F)F)c2)C3)n1 ; value: >0.5 µM
C=C[C@H](C)Nc1nc2c(c(=O)n1-c1ccc(C(=O)N(C)CO)cc1)C[C@@H](C)N(C(=O)c1ccc(Br)c(C(F)(F)F)c1)C2 ; value: >50 µM
CC(=O)Nc1ccc([C@H](C)N2CCn3nc4c(c3C2=O)CN(C(=O)c2ccc(Cl)c(Cl)c2)[C@H](C)C4)cc1 ; value: 0.3 µM
C[C@@H]1Cc2nn3c(c2CN1C(=O)c1ccc(Cl)c(C#N)c1)C(=O)N([C@@H](C)c1cccc(OC(F)(F)F)c1)CC3 ; value: >50 µM
C[C@@H]1Cc2nn3c(c2CN1C(=O)c1ccc(Cl)c(C#N)c1)C(=O)N([C@H](C)c1cccc(NS(C)(=O)=O)c1)CC3 ; value: >50 µM
C[C@@H]1Cc2nn3c(c2CN1C(=O)c1ccc(Br)c(C#N)c1)C(=O)N([C@@H](C)c1ccc(OC(F)(F)F)cc1)CC3 ; value: 49.6 µM
Cc1cc(C)n(-c2nc3c(c(=O)n2-c2ncc(N)cn2)C[C@@H](C)N(C(=O)c2ccc(Br)c(C(F)(F)F)c2)C3)n1 ; value: >0.5 µM
C[C@@H]1Cc2nn3c(c2CN1C(=O)c1ccc(Cl)c(C#N)c1)C(=O)N([C@H](C)c1cccc(OC(F)F)c1)CC3 ; value: >50 µM
C=C[C@H](C)Nc1nc2c(c(=O)n1-c1ccc(C(=O)N(C)C(=O)O[C@H](C)OC(=O)[C@@H](N)C(C)C)cc1)C[C@@H](C)N(C(=O)c1ccc(Br)c(C(F)(F)F)c1)C2 ; value: >50 µM
CC(=O)Nc1ccc([C@@H](C)N2CCn3nc4c(c3C2=O)CN(C(=O)c2ccc(Cl)c(C(F)(F)F)c2)[C@H](C)C4)cc1 ; value: 19.7 µM
C[C@@H]1Cc2nn3c(c2CN1C(=O)c1ccc(Cl)c(C#N)c1)C(=O)N(Cc1ccc2c(c1)OC(F)(F)O2)CC3 ; value: 11.3 µM
C=C[C@H](C)Nc1nc2c(c(=O)n1-c1ccc(C(=O)N(C)C(=O)OCOP(=O)(O)O)cc1)C[C@@H](C)N(C(=O)c1ccc(Br)c(C(F)(F)F)c1)C2 ; value: >50 µM
Cc1[nH]nc2c1CCn1nc3c(c1-2)CN(C(=O)c1ccc(Cl)c(Cl)c1)CC3 ; value: >50 µg/mL
C=C[C@H](C)Nc1nc2c(c(=O)n1-c1ccc(C(=O)N(C)C(=O)O[C@H](OC(=O)[C@@H](N)C(C)C)C(C)C)cc1)C[C@@H](C)N(C(=O)c1ccc(Br)c(C(F)(F)F)c1)C2 ; value: >50 µM
Cc1cc(C)n(-c2nc3c(c(=O)n2-c2ccc(NC[C@@H](O)CO)nc2)C[C@@H](C)N(C(=O)c2ccc(Br)c(C(F)(F)F)c2)C3)n1 ; value: >0.5 µM
C[C@@H]1Cc2nn3c(c2CN1C(=O)c1ccc(Cl)c(C#N)c1)C(=O)N(Cc1ccc2nccn2c1)CC3 ; value: >50 µM

3 of the rows above, restated:

compound | value
Cc1[nH]nc2c1CCn1nc3c(c1-2)CN(C(=O)c1ccc(Cl)c(Cl)c1)CC3 | >50 µg/mL
Cc1c(C(=O)N2Cc3c(nn4c3C(=O)N([C@H](C)c3ccc(OC(F)F)cc3)CC4)C[C@H]2C)ccc(Cl)c1C#N | >50 µM
Cc1cc(C)n(-c2nc3c(c(=O)n2-c2ncc(N)cn2)C[C@@H](C)N(C(=O)c2ccc(Br)c(C(F)(F)F)c2)C3)n1 | >0.5 µM